Pooled drug test results. Numbers come from NIAID ChemDB, via PubChem.

All rows: tests on isolated targets; species: HIV-1; protein: Reverse transcriptase; measure: IC50

An empty or dashed field is not shown.

compound,method,strain,mutations,result
Nc1ncnc2c1ncn2[C@H]1CC[C@@H](COP(=O)(O)OP(=O)(O)OP(=O)(O)O)O1,ELISA,HXB2,-,6.8 µM
CC(C)(C)OC(=O)N1CCN(C(=O)c2cc(O)c(O)c(O)c2)CC1,ELISA / nucleotide incorporation,BH10,-,>50 µM
O=C(/C=C/c1ncc(-c2ccccc2)cn1)Nc1cc(-c2ccc3c(c2)CCCC3)[nH]n1,RT activity / nucleotide incorporation / luminescence,NL4-3,K103N,0.19 µM
Nc1ccn([C@H]2CC[C@@H](COP(=O)(O)OP(=O)(O)OP(=O)(O)O)O2)c(=O)n1,ELISA,-,RT-L74V,9.4 µM
N#Cc1ccc(NC(=S)N[C@@H]2[C@@H]3COc4c(F)ccc(F)c4[C@@H]32)nc1,scintillation proximity / radiometric,-,L100I,0.0052 µM
COc1ccc2c(c1)N(C(=O)OC(C)C)[C@@H](CSC)C(=S)N2,scintillation proximity / radiometric,-,RT-Y181I G190E,>29 µM
O=C(Nc1cc(-c2ccc3c(c2)CCCC3)[nH]n1)c1ncccn1,RT activity / nucleotide incorporation / luminescence,NL4-3,K103N,0.89 µM
c1ccc(C2SCc3nc4ccccc4n32)cc1,-,-,RT-I135T,>50 µM
Cc1cccc(N2C(=O)CSC2c2cccnc2)n1,ELISA,-,-,>10 µg/mL
CC(C)c1cc(C(C)C)c(S(=O)(=O)N2CCN(C(=O)c3cc(O)c(O)c(O)c3)CC2)c(C(C)C)c1,ELISA / nucleotide incorporation,BH10,-,>50 µM
CN(C)c1ccc(C2SCC(=O)N2Cc2ccco2)cc1,ELISA,-,-,>10 µg/mL
Cc1cc(S(N)(=O)=O)ccc1NC(=O)COc1ccc(Cl)cc1C(=O)c1cc(Cl)cc(C#N)c1,fluorescence,-,RT-V108I,0.002 µM
COc1ccc(C(=O)N2CCN(C(=O)c3cc(O)c(O)c(O)c3)CC2)cc1,ELISA / nucleotide incorporation,BH10,-,>50 µM
O=C(Nc1cc(-c2ccc3c(c2)CCCC3)[nH]n1)c1cccs1,RT activity / nucleotide incorporation / luminescence,NL4-3,K103N,0.55 µM
CCS(=O)(=O)N1CCN(C(=O)c2cc(O)c(O)c(O)c2)CC1,ELISA / nucleotide incorporation,BH10,-,>50 µM
O=C(Nc1cc(-c2ccc3c(c2)CCCC3)[nH]n1)c1ccno1,RT activity / nucleotide incorporation / luminescence,NL4-3,K103N,1 µM
Cc1ccc(S(=O)(=O)N2CCC(NC(=O)c3cc(O)c(O)c(O)c3)CC2)cc1,ELISA / nucleotide incorporation,BH10,-,>295.2 µM
O=C1CSC(c2c(F)cccc2F)N1c1cccc(C(F)(F)F)c1,ELISA,-,-,>10 µg/mL
CC(=O)N1CCN(C(=O)c2cc(O)c(O)c(O)c2)CC1,ELISA / nucleotide incorporation,BH10,-,>50 µM
Cc1ccc(CN2C(=O)CSC2c2c(F)cccc2Cl)o1,ELISA,-,-,<10 µg/mL
O=C(Nc1cc(-c2ccc3c(c2)CCCC3)[nH]n1)c1ccc(-c2cncnc2)s1,RT activity / nucleotide incorporation / luminescence,NL4-3,Y181C,0.32 µM

Repeating the first 2 entries:

{"compound": "Nc1ncnc2c1ncn2[C@H]1CC[C@@H](COP(=O)(O)OP(=O)(O)OP(=O)(O)O)O1", "method": "ELISA", "strain": "HXB2", "result": "6.8 µM"}
{"compound": "CC(C)(C)OC(=O)N1CCN(C(=O)c2cc(O)c(O)c(O)c2)CC1", "method": "ELISA / nucleotide incorporation", "strain": "BH10", "result": ">50 µM"}

ICn is the concentration giving n% inhibition. Lines come from different laboratories, so protocols vary.